Three compounds from US10220083B2 (priority 2014, dated 2019) can be followed below.

Experiment [1] relates to human pneumococcal reference serum 007sp (pooled sera of humans immunized with Pneumovax). As to the kind of experiment: Glycan microarray binding with human pneumococcal reference serum 007sp. The settings on record: for recognition by antiserum from human vaccinated with Pneumovax23 (007sp): anti-human IgM and IgG detection, FIGS. 4 (B) and 4 (C).
The test system of another experiment is mAb 1F1. As to the kind of experiment: Glycan array analysis using mAb 1F1. Type of experiment: binding, mouse. The settings on record: glycan microarray, FIG. 11 (A).
Experiment [2] deals with mAb 28H11 (protective murine IgM raised against native Sp8 polysaccharide). As to the kind of experiment: Glycan microarray binding of mAb 28H11.
For another experiment, the system named is mAb 1H8. Put plainly: Glycan array analysis using mAb 1H8. The following applies: glycan microarray, FIG. 11 (A). The format is binding, mouse.

In the case of `NCCCCCO[C@H]1OC(CO)[C@H](O[C@H]2OC(CO)[C@@H](O[C@@H]3OC(CO)[C@@H](O[C@@H]4OC(C(=O)O)[C@@H](O)C(O)C4O)C(O)C3O)C(O)C2O)C(O)C1O` (some centres unmarked), in experiment [1] (FIG. 4), the “interaction with the antiserum from human vaccinated with Pneumovax23” value was “Robust interactions”. The “recognition by antiserum from human vaccinated with Pneumovax23 (007sp)” value (shortened to “recognition by antiserum”) in experiment [1] is reported as “recognized”. In addition, the “recognition by mAb 1F1” value in the experiment with mAb 1F1 is given as “recognized with similar intensities”. Also, in experiment [2] (glycan microarray, FIG. 12), the “interaction of mAb 28H11 with saccharide” value was “robust interaction”. Also, in experiment [2] (native CPS up to 10 μg/mL), the “inhibition of mAb 28H11 binding by native S. pneumoniae type 8 CPSs” value is on record as “ablation of binding”. Besides, the “recognition by mAb 1H8” value in the experiment on mAb 1H8 is recorded as “recognized with similar intensities”.
With `NCCCCCO[C@@H]1OC(C(=O)O)[C@@H](O[C@H]2OC(CO)[C@H](O[C@H]3OC(CO)[C@@H](O[C@@H]4OC(CO)[C@@H](O)C(O)C4O)C(O)C3O)C(O)C2O)C(O)C1O` (some centres unmarked), the “recognition by antiserum” value in experiment [1] is reported as “recognized”.
Consider `NCCCCCO[C@H]1OC(CO)[C@@H](O[C@@H]2OC(CO)[C@@H](O[C@@H]3OC(C(=O)O)[C@@H](O[C@H]4OC(CO)[C@H](O)C(O)C4O)C(O)C3O)C(O)C2O)C(O)C1O` (some centres unmarked), for which the “recognition by antiserum” value in experiment [1] is given as “recognized”.
